Experimental data: patent US20240043504A1 (published 2024)

What was measured:
Experiment in all cases: Luminex, supernatant
[1] = target: T1, MERS-CoV (NCoV/Novel coronavirus) Spike Protein S1 Protein (aa 1-725, His Tag) (Sino 40069-V08B1) (MERS-CoV, UniProt K9N5Q8 18-725)
T1 sequence: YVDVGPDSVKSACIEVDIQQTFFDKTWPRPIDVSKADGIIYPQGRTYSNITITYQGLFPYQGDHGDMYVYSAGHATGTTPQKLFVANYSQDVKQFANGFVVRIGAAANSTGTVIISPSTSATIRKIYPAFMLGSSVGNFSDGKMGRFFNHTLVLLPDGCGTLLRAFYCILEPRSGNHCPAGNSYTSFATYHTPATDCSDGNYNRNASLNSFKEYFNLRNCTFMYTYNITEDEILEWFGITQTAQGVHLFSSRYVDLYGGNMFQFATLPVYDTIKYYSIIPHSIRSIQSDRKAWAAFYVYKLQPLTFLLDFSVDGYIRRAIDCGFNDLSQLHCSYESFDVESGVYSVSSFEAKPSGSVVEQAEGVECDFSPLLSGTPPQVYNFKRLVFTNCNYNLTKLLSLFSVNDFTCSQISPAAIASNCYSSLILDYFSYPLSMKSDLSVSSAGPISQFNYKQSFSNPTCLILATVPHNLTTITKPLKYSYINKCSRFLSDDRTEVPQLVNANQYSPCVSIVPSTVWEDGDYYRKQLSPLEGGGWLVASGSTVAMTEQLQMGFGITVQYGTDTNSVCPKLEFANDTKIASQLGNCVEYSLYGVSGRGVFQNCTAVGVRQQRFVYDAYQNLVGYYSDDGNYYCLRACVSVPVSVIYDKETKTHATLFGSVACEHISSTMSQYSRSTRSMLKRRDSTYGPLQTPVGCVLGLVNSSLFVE

Bt-MERS.hFc (mAb2664-L2) = Bt-MERS.hFc (mAb2664-L2) (MERS-CoV)
MERS.hFc (mAb2664-L1) = MERS.hFc (mAb2664-L1) (MERS-CoV)
MERS.mFc (mAb2663-L1) = MERS.mFc (mAb2663-L1) (MERS-CoV)

B1: mAb10922 (antibody, V domains shown)
VH: EVQLVESGGGLVQPGGSLRLSCAASGFTFSIYEMNWVRQAPGKGLEWVSYITSSGTTIYYADSVKGRFTISRDNAKNSLYLQMNSLRAEDTAVYYCASSSSSGYYFDYWGQGTLVTVSS
VL: not shown
[1]
  MFI: 22 MFI
Bt-MERS.hFc (mAb2664-L2)
  MFI: 24 MFI
MERS.hFc (mAb2664-L1)
  MFI: 21 MFI
MERS.mFc (mAb2663-L1)
  MFI: 20 MFI
